The text below walks through data of US10160867B2, “Benzoxaborole-containing coating resistant to cellulose-supportable fungus” (THE PENN STATE RESEARCH FOUNDATION, priority 2015, dated 2018).

SMILES strings stand for the structures. In brackets after ≈: the same amount, converted by molar mass.

For experiment [1], the system named is Fusarium oxysparum ST-33. The experiment is described as follows: 3 day MIC, broth microdilution in 25% PDB. The class given is cell-based. To be noted: ST33, 72 h, read-out: 3 day MIC. How it is done:
(§1) Stock solutions (concentrations of between 4,000 μg/mL to 10,000 μg/mL; stored at −18° C.) of the above antifungals were prepared in dimethyl sulfoxide (DMSO). The stock solutions were further diluted into sterile 25% potato dextrose broth (PDB) so that the diluted solutions could be used for the antifungal susceptibility studies. This way, a typical microdilution study would reach a final ratio of about 0.5-2% v/v of DMSO in 25% PDB.
Spore inocula were prepared in sterile distilled water with 0.1% Tween® 20 (a polysorbate surfactant), and a hemocytometer was used to determine the spore density. […]
The minimal inhibitory concentrations (MICs) for individual antifungal agents were determined by following a modified broth microdilution protocol CLSI (Clinical and Laboratory Standards Institute) M38-A2 [Clinical and Laboratory Standards Institute (2008) Reference method for broth dilution antifungal susceptibility testing of filamentous fungi—2nd edition: Approved Standard M38-A2, CLSI, Wayne, Pa.] where 25% potato dextrose broth (PDB) was used as the medium. […]
(§2) Plates sealed with clear polyester film (VWR, Radnor, Pa.) were incubated at a temperature of about 25° C. The progress of fungal growth was monitored at 48 hours and 72 hours.

For experiment [2], the system named is Alternaria alternata. The experiment is described as follows: 3 day MIC, broth microdilution in 25% PDB. To be noted: 72 h, read-out: 3 day MIC. The class given is cell-based. How it is done: as §1
Spore inocula were prepared in sterile distilled water with 0.1% Tween® 20 (a polysorbate surfactant), and a hemocytometer was used to determine the spore density. Typically, the spore inoculum was prepared fresh prior to each study, and the inoculum was appropriately diluted to a final concentration of 0.4-1×10^5 spores/mL or colony-forming unit (CFU)/mL in each study. The spore suspension can be stored in a refrigerator at 4° C. for up to one week.
The studies were performed in flat bottom, 96-well microtiter plates (Greiner Bio-One, Frickenhausen, Germany).
as §2

The term MIC denotes the smallest concentration in the dilution series that meets the test's criterion for growth inhibition. Regarding `OB1OCc2ccccc21` [Compound B0, 2-(hydroxymethyl)-benzene boronic acid hemiester], the values for the minimum inhibitory concentration (MIC) in experiment [1] and in experiment [2] were 1 µg/mL (≈ 7.47 µM) and 12.5 µg/mL (≈ 93.3 µM), respectively.
